# Results deposited as PubChem BioAssay AID1259414 (Drosophila RNAi Screening Center, 2018).
# Aim: 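Fly genes that alter Wolbachia amount inside host cells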 (primary screen)
# Cell system: Drosophila JW18 cells infected with Wolbachia
# Reagent: long dsRNA against Drosophila genes, 0.25 µg dsRNA per well of a 384-well plate
# Duration: 5 days
# Challenge: cells persistently infected with Wolbachia before knock-down; no added drug
# Measurement: 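Automated imaging of bacterial rRNA staining divided by host cell count, reported as plate-normalised robust z-score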
# Scale: Wolbachia per cell robust z: higher = more Wolbachia per host cell than the plate typical
# Hit rule: 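Active if absolute robust z reaches 1.5 in two or more of three replicates, leaving out multi- or no-target dsRNAs, genes unexpressed in JW18 and A1 wells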
# The screen tested about 24,000 reagents; shown is an unselected part of those that have a named target and a result. Over the whole deposit, about 1,210 (5%) are marked active. 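Inactive calls also include excluded dsRNAs with several or no targets, genes unexpressed in JW18, and well A1, regardless of score.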 A plus sign joins genes that one reagent is predicted to hit.
"Wolbachia per cell robust z, rep 1","Wolbachia per cell robust z, rep 2","Wolbachia per cell robust z, rep 3",Call,gene,PubChem SID
-0.204,-7.62,0.528,inactive,Tbcd (GeneID 33389),SID104180065
-1.15,-0.451,0.394,inactive,mAChR-B (GeneID 40955),SID104196137
-3.27,-2.03,-0.384,inactive,mAChR-B (GeneID 40955),SID104205282
0.677,0.305,-1.69,inactive,Ahcy (GeneID 32471),SID104199121
0.0049,0.321,0.21,inactive,Ahcy (GeneID 32471),SID104205848
0.0709,0.267,0.764,inactive,CG30094 (GeneID 246452),SID104201788
-0.142,0.439,0.13,inactive,CG30094 (GeneID 246452),SID104205608
-0.48,0.319,1.15,inactive,CG5290 (GeneID 39998),SID104190293
0.0525,-1.61,0.376,inactive,CG5290 (GeneID 39998),SID104208585
0.337,0.0995,0.568,inactive,pasi1 (GeneID 42139),SID104196091
-0.702,1.02,-0.425,inactive,pasi1 (GeneID 42139),SID104201864
1.22,0.543,1.03,inactive,pasi1 (GeneID 42139),SID104205232
0.462,-0.802,-0.262,inactive,CG32487 (GeneID 38358),SID104201414
-2.01,-2.43,-1.84,inactive,CG32487 (GeneID 38358),SID104207622
0.402,-0.42,-0.352,inactive,nmdyn-D7 (GeneID 41174),SID104196808
-0.183,0.522,0.0876,inactive,CG8997 (GeneID 34799),SID104181692
0.0159,1.33,0.573,inactive,CG8997 (GeneID 34799),SID104206546
0.769,1.26,0.661,inactive,CG4213 (GeneID 33209),SID104180433
-1.09,-0.365,0.0899,inactive,elB (GeneID 34844),SID104203585
1.29,0.187,1.14,inactive,santa-maria (GeneID 34024),SID104180786
-7.37,-3.34,-0.0311,inactive,santa-maria (GeneID 34024),SID104181972
-0.903,-1.62,0.606,inactive,CG10184 (GeneID 42783),SID104193996
0.216,-0.26,0.73,inactive,Kif3C (GeneID 43820),SID104197001
-0.449,-0.194,0.566,inactive,Kif3C (GeneID 43820),SID104197002
-1.06,0.443,-1.42,inactive,Kdsr (GeneID 43043),SID104194037
0.627,-1.79,0.639,inactive,Men-b (GeneID 43936),SID104196528
0.223,0.982,0.983,inactive,Coq4 + frc,SID104190173
-1.56,-3.33,-2.64,inactive,Coq4 + frc,SID104190174
-0.919,0.297,-5.06,inactive,loco (GeneID 42672),SID104194994
-0.191,0.254,0.514,inactive,loco (GeneID 42672),SID104196781
-0.686,0.0636,1.2,inactive,loco (GeneID 42672),SID104206239
0.635,0.0954,-1.27,inactive,CG33258 (GeneID 3885664),SID104189207
-0.473,-0.723,-0.443,inactive,CG33258 (GeneID 3885664),SID104202811
-0.763,-0.543,-1.75,inactive,tank (GeneID 33684),SID104180253
0.28,0.156,0.675,inactive,mRpS14 (GeneID 117414),SID104199236
0.301,1.36,1.08,inactive,ppk (GeneID 34843),SID104183387
-1.3,-2.18,0.883,inactive,ppk (GeneID 34843),SID104203907
-0.959,-0.293,-0.511,inactive,olf413 (GeneID 40453),SID104191335
0.564,2.01,1.26,inactive,olf413 (GeneID 40453),SID104191471
0.59,-0.172,0.625,inactive,olf413 (GeneID 40453),SID104191513
1.4,0.258,0.942,inactive,olf413 (GeneID 40453),SID104191625
-4.86,-1.02,-1.37,inactive,CG31924 (GeneID 319030),SID104180481
0.00315,-0.306,1.68,inactive,XRCC1 (GeneID 31451),SID104198521
0.992,0.946,0.155,inactive,XRCC1 (GeneID 31451),SID104207024
0.0777,1.22,0.364,inactive,CG13005 (GeneID 32670),SID104199316
1.06,1.08,0.998,inactive,CG15199 (GeneID 32051),SID104199438

4 of these entries, set out differently.
| Wolbachia per cell robust z, rep 1 | Wolbachia per cell robust z, rep 2 | Wolbachia per cell robust z, rep 3 | Call | gene | PubChem SID |
| --- | --- | --- | --- | --- | --- |
| -0.449 | -0.194 | 0.566 | inactive | Kif3C (GeneID 43820) | SID104197002 |
| -1.06 | 0.443 | -1.42 | inactive | Kdsr (GeneID 43043) | SID104194037 |
| 0.627 | -1.79 | 0.639 | inactive | Men-b (GeneID 43936) | SID104196528 |
| 0.223 | 0.982 | 0.983 | inactive | Coq4 + frc | SID104190173 |
